## Screening data, single-dose tests

Mtb glucose medium: 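Phenotypic screen: M. tuberculosis growth, glucose 7H9 medium, 3 days; the read-out is not stated. Compounds at 500 µM. Direction is inferred from retests: higher values go with more growth inhibition. About 18,000 compounds were tested under these conditions; 7.9% (about 1,400) showed 50% or more at least once.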
Mtb cholesterol medium: 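Phenotypic screen: M. tuberculosis growth, cholesterol and DPPC medium, 4 days; the read-out is not stated. Tested at 500 µM. Higher reads as more growth inhibition (inferred: compounds with an IC50 in retests scored well above the rest). About 18,000 compounds were tested under these conditions; 5% (about 900) showed 50% or more at least once.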

Results are given as percent effect. How 0% and 100% were set is not recorded. Most values in the screen are low, and negative values occur. The entries come from a sample that favours strong results. A dash means the value is not listed here; it may have been measured.

| # | SMILES | Mtb glucose medium | Mtb cholesterol medium |
|---|---|---|---|
| 1 | `Cc1n[nH]cc1NC(=O)C1COc2ccccc2O1` (configuration not stated) | 30.94 | - |
| 2 | `CC(SC1=NCCN1)C(=O)Nc1ccc(F)cc1` (configuration not stated) | 33.69 | - |
| 3 | `N#Cc1c[nH]c(C(=O)NCC(=O)N2CCNCC2)c1` | 1.241 | - |
| 4 | `CC[C@H](N)c1ccccc1F` | - | 9.16 |
| 5 | `N#Cc1cnc2ccsc2c1` | - | -1.468 |
| 6 | `O=C(c1c[nH]nc1-c1ccccc1)N1CCOCC1` | 5.773 | - |
| 7 | `O=C(CCc1cccnc1)NCCN1CCNC1=O` | - | -17.71 |
| 8 | `N#CCCCSc1nnc(N)s1` | - | 45.92 |
| 9 | `CCS(=O)(=O)N1CCC(C(=O)NCCCN(C)C)CC1` | 3.705 | - |
| 10 | `CN1CCCN(C(=O)c2ccc3ccccc3n2)CC1` | - | 4.081 |
| 11 | `NC1CCCN(c2ccccc2F)C1=O` (configuration not stated) | - | -0.9063 |
| 12 | `Cc1noc(N)c1Cl` | - | 13.1 |
| 13 | `CN(C)c1ccc(Br)c(S(=O)(=O)NC2CCNC2)c1` (configuration not stated) | 69.33 | - |
| 14 | `Cc1csc(NC(=O)NC(CO)CC(C)C)n1` (configuration not stated) | 66.92 | 66.9 |
| 15 | `CC(=O)c1cc[nH]n1` | -7.747 | - |
| 16 | `CCOc1cccc2c1CCC2N` (configuration not stated) | 37.44 | - |
| 17 | `CN(C)S(=O)(=O)Nc1cccc(C2SCCS2)c1` | 12.25 | - |
| 18 | `CN(C)C(=O)CCCOc1nc(C(C)(C)C)no1` | - | 17.98 |
| 19 | `O=C(Cn1cnc2ccccc2c1=O)N1CCCCC1` | - | -8.636 |
| 20 | `CN(C)CCNC(=O)c1cc(Br)c[nH]1` | 11.37 | - |
| 21 | `OCC1(O)CCOCC1` | 2.099 | - |
| 22 | `CC(=O)NC1CCN(c2ncccc2C#N)CC1` | - | -11.08 |
| 23 | `CCOc1ccccc1NC(=O)Cn1ccnc1` | - | -5.981 |
| 24 | `CCN(CC)S(=O)(=O)c1ccc(OC)c(NC(C)=O)c1` | 12.39 | - |
| 25 | `CC(C)CCNC(=O)CCCC(=O)Nc1ccccn1` | -7.272 | - |
| 26 | `CN(C)c1ccc(C(=O)NCCc2c[nH]cn2)cn1` | - | -2.757 |
| 27 | `CC1CCCN1CC(=O)Nc1ncccc1O` (configuration not stated) | 2.205 | - |
| 28 | `OC[C@@H]1CCCN1Cc1ccc(F)c2cccnc12` | 35.05 | 1.681 |
| 29 | `CNS(=O)(=O)C1CCN(S(=O)(=O)c2ccccc2)CC1` | - | 3.103 |
| 30 | `Cc1ccsc1CN(C)C(=O)c1ccccn1` | 35.33 | - |
| 31 | `O=C(Nc1ccc(F)cc1Cl)N[C@@H]1CNCC[C@H]1O` | 3.715 | - |
| 32 | `CC(C)(N)c1ncc[nH]1` | 5.985 | - |
| 33 | `Cc1nc2c(c(NCc3ccc(N)nc3)n1)CCCC2` | 4.687 | - |
| 34 | `CC(C)(C#N)C(=O)Nc1ncccc1Cl` | 1.995 | - |
| 35 | `Cc1ccoc1C(=O)N(C)Cc1nc(C(C)C)no1` | 63.43 | 56.35 |
| 36 | `CCN[C@H](C)CNC(=O)c1ccccc1` | -3.663 | - |
| 37 | `CSCC(C)(O)CNC(=O)c1cc(C(C)C)[nH]n1` (configuration not stated) | - | 10.01 |
| 38 | `O=C(NCCNC(=O)c1ccccc1)C1=CCC1` | - | 8.122 |
| 39 | `COCCN1CCN(Cc2cccn2C)CC1=O` | - | -3.53 |
| 40 | `Cc1ncc(CN2CCn3ccnc3C2)s1` | - | -10.52 |
| 41 | `Cc1cc(C)c(CNC(=O)CCc2nccs2)c(=O)[nH]1` | -14.17 | - |
| 42 | `CCOc1ccc(CN2CCC(O)CC2)cc1` | - | 16.3 |
| 43 | `CC(C)N(C(=O)CSc1nnc[nH]1)C(C)C` | -0.857 | - |
| 44 | `NCc1ccc(CN2CCOCC2)o1` | -5.53 | -15.22 |
| 45 | `O=C1CN(C(=O)Nc2cc(Cl)ccc2F)CCN1` | 35.75 | 17.43 |
| 46 | `COCCC(=O)Nc1cc(OC)ccn1` | -10.65 | -17.86 |
| 47 | `Nc1ccn(CCO)n1` | -7.57 | - |
| 48 | `CCNC(=O)NC(c1ccc2c(c1)OCCO2)C(C)C` (configuration not stated) | 59.23 | - |
| 49 | `CCC1CN(C(=O)c2cnc(C)cn2)CCO1` (configuration not stated) | 12.74 | 5.942 |
| 50 | `CC(Nc1cccc(OC(F)(F)F)c1)C(=O)NC(N)=O` (configuration not stated) | 52.78 | 54.57 |
| 51 | `CC(=O)N1CCC(CSc2n[nH]c(=O)n2C)CC1` | 7.008 | - |
| 52 | `Cc1cccc(NCC2(CS(C)(=O)=O)CC2)n1` | 7.197 | - |
| 53 | `CC(C)n1ccnc1CN1CCOC(CN)C1` (configuration not stated) | -1.503 | - |
| 54 | `Cc1cc(C(=O)NCCCN2CCOCC2)c(C)o1` | -0.9746 | - |
| 55 | `CCCn1ncnc1-c1ccc(S(C)(=O)=O)cc1` | -1.838 | - |
| 56 | `Cc1cc(N2CCCN(CC3CCNC3)CC2)ccn1` (configuration not stated) | -5.679 | - |
| 57 | `CN(CCN)CC(=O)N(C)C` | -7.199 | - |
| 58 | `Cc1cc(Cl)ccc1NC(=O)CSc1n[nH]c(N)n1` | 52.24 | - |
| 59 | `CS(=O)(=O)Nc1ccccc1CNC(=O)c1ccoc1` | - | -0.866 |
| 60 | `N#Cc1cccc(CNc2ccc(OCCO)nc2)c1` | -20.34 | - |
| 61 | `CN1C(=O)[C@H]2CN(Cc3ccc(Cl)cc3F)C[C@H]2C1=O` | - | 1.9 |
| 62 | `O[C@@H]1CCN[C@@H]1c1ccc(Cl)cc1` | 19.25 | - |
| 63 | `CNC(=O)NC(=O)CCN1CCN(S(C)(=O)=O)CC1` | 65.96 | 50.39 |
| 64 | `CN(CCCO)C(CCO)c1ccccc1` (configuration not stated) | - | 0.4744 |
| 65 | `NCc1ccc(-c2ccccc2)o1` | 0.5297 | - |
| 66 | `CCC(NC(=O)CCCN1CCCC1)c1cnn(C)c1` (configuration not stated) | - | 4.097 |
| 67 | `O=c1[nH]c2cc(Cl)ccc2c(=O)n1CC1CCCO1` (configuration not stated) | - | 4.66 |
| 68 | `CCN1CCCC(CNC(=O)Nc2cnn(CC)c2)C1` (configuration not stated) | 1.989 | - |
| 69 | `Cc1csc(NC(=O)CSc2nccn2C)n1` | - | -11.69 |
| 70 | `Cc1ccc(NC(=O)NC(C)(CO)CO)cc1Br` | 13.18 | 0.6745 |
| 71 | `NC(=O)NC(=O)CSc1nncs1` | 6.287 | - |
| 72 | `CC[C@H](O)CN(CCNC(C)=O)C(C)C` | - | -6.282 |
| 73 | `CCOC(CC)CNC(=O)c1cnn(C(C)C)c1` (configuration not stated) | 25.44 | - |
| 74 | `CCC(C)c1cc(C(=O)NC(C)(CO)CO)on1` (configuration not stated) | -2.682 | -13.08 |

5 of the entries, repeated:

* CCN[C@H](C)CNC(=O)c1ccccc1 : Mtb glucose medium: -3.663%
* CC(C)(C#N)C(=O)Nc1ncccc1Cl : Mtb glucose medium: 1.995%
* Nc1ccn(CCO)n1 : Mtb glucose medium: -7.57%
* N#Cc1c[nH]c(C(=O)NCC(=O)N2CCNCC2)c1 : Mtb glucose medium: 1.241%
* CC[C@H](O)CN(CCNC(C)=O)C(C)C : Mtb cholesterol medium: -6.282%

Measurements from “University of Dundee, Small-Polar-MMV Screening Library” (2021), ChEMBL document CHEMBL3988442.